Results taken from US11279734B2, “Solution-phase affinity selection of inhibitors from combinatorial peptide libraries” (Massachusetts Institute of Technology, priority 2017, dated 2022).

Biological target: SUMO-C-CA (HIV-1 C-terminal capsid domain) (Human immunodeficiency virus type 1 group M subtype B, UniProt P04591, A340G)
Conditions: biotinylated peptides, BLI

Substance	binding to C-CA (in words)
IT(F2f)(S5)D(Cba)L(S5)YYGP [peptide 30a-M]	higher affinity than the reference bioactive NYAD peptide (37a-M)
IT(F2f)ED(Cba)LHYYGP [peptide 30a]	nanomolar peptide binder to C-CA
